Results taken from paper PMC7587356, “High-Throughput Screening for Inhibitors of the SARS-CoV-2 Protease Using a FRET-Biosensor” (Molecules, 2020).
Read-outs that look alike come from different tables or passages of the source. Some entries repeat one wording, which the source may state once for all of them.

System: eCFP-Venus biosensor
Experiment: Counter-screen without protease for compounds interfering with FRET
[1] = no protease, LOPAC counter-screen

## O=C(Nc1cccc(C(=O)Nc2ccc(S(=O)(=O)O)c3cc(S(=O)(=O)O)cc(S(=O)(=O)O)c23)c1)Nc1cccc(C(=O)Nc2ccc(S(=O)(=O)O)c3cc(S(=O)(=O)O)cc(S(=O)(=O)O)c23)c1 [NF 023, reference compound]
[1]
  effect on FRET signal (R528/477) in the absence of protease: large reduction in fluorescence

## O=C1c2ccccc2-c2n[nH]c3cccc1c23 [anthrapyrazolone]
[1]
  effect on FRET signal (R528/477) in the absence of protease: large reduction in fluorescence

## OCCN(CCO)c1nc(N2CCCCC2)c2nc(N(CCO)CCO)nc(N3CCCCC3)c2n1 [dipyridamole]
  effect on FRET signal (R528/477) in the absence of protease: large reduction in fluorescence
